Source: patent EP4687750B1, “ORAL CARE KIT COMPRISING A LIGHT EMITTING DEVICE AND AN ORAL COMPOSITION” (dated 2026)

Assays:
6-species biofilm = test: aPDT on in vitro 6-species supragingival biofilm model, total CFU count
[1] = system: Streptococcus mutans (S. mutans); details: curcumin activated with a blue LED for several seconds; isolates from plaque of patients with dental caries; cited from earlier work
C. albicans = test: aPDT on in vitro 6-species supragingival biofilm model, C. albicans; details: second pilot trial (Fig. 7); chlorhexidine: 2 min application of 0.02% CHXglu; aPDT: 1 mg/ml Curcumin + 4 LEDs 10 seconds light
[2] = summary of pilot trials, Cur-PVP and methylene blue as aPDT (light activated), chlorhexidine alone

SMILES	total CFU (log) (6-species biofilm; fourth pilot trial (Fig. 9), 5 min incubation with 0.1 mg/ml Methylene blue + 1 LED 5W (660nm) for 10 seconds)	total CFU (log) (6-species biofilm; fourth pilot trial (Fig. 9), 5 min incubation with 1 mg/ml Methylene blue, without light activation)	effect of the photosensitizer alone on the number of bacteria (6-species biofilm; no light activation)	selectivity in targeting specific bacteria strains (6-species biofilm; [2])	photo-inactivation of planktonic suspensions of S. mutans [1]	impact on C. albicans (C. albicans)	effectiveness in reducing total CFU (6-species biofilm; [2])	total CFU (log) (6-species biofilm; third pilot trial (Fig. 8), 2 min application of 0.02% CHXglu at 16h, 24h, 40h)	total CFU (log) (6-species biofilm; third pilot trial (Fig. 8), 2 min application of 0.02% CHXglu at 16h and 40h)
CN(C)c1ccc2nc3ccc(=[N+](C)C)cc-3sc2c1	10^6-10^7 CFU	10^6-10^7 CFU	strong effect	less selective in targeting specific bacteria strains					
COc1cc(/C=C/C(=O)CC(=O)/C=C/c2ccc(O)c(OC)c2)ccc1O					able to photo-inactivate				
[H]/N=C(\N/C(=N/[H])NCCCCCCNC(=N)NC(=N)Nc1ccc(Cl)cc1)Nc1ccc(Cl)cc1				less selective in targeting specific bacteria strains		strong impact	more effective in reducing total CFU	around 10^4 CFU	around 10^4 CFU
